Anti-infective test results gathered from many reports (values: NIAID ChemDB through PubChem).

Shared fields: whole-cell or culture tests; organism: HIV-1

Conditions beyond the fields shown may differ between rows.

smiles,cells,conditions,method,mutations,strain or isolate,read-out,value
CCn1nc(Cc2ccc(OC3CC3)cc2)cc1C1CCN(C[C@H]2CN([C@@H](C(=O)O)C(C)(C)C)C[C@@H]2c2cccc(F)c2)CC1,HeLa,50% human serum,β-galactosidase,,BaL,EC90,0.033 µM
N#C/C=C1/c2cc(S)cc([N+](=O)[O-])c2-c2c1cc(S(=O)(=O)NCc1ccccc1)cc2[N+](=O)[O-],MT-4,,MTT / absorbance,,IIIB,EC50,72.64 µM
Cc1cn([C@@H]2O[C@H](CO[Si](C)(C)C(C)(C)C)[C@@]3(OS(=O)(=O)C=C3N)[C@H]2O[Si](C)(C)C(C)(C)C)c(=O)[nH]c1=O,CEM,,syncytia,RT-Y181C,IIIB,EC50,3 µM
CCCCCCNC(=O)OCCCCCCNC(=O)OC1CCN(C(=O)Oc2ccc(Oc3ccccc3)cc2)CC1,C8166,,p24 / ELISA,,IIIB,EC50,2.03 µM
CCc1cc(NCc2nc3c(Cl)ccc(Cl)c3o2)c(=O)[nH]c1C,CEM,,syncytia,RT-C181I,IIIB,EC50,>15 µM
Oc1ccc(C[C@@H]2NCCc3cc(O)c(O)cc32)cc1,H9,,p24,,IIIB,EC50,<0.8 µg/mL
CCOCn1c(Cc2ccccc2)c(C(C)C)c(=O)[nH]c1=O,CEM,,cytopathic effect,RT-Y181C,J-2 (RT-Y181C),EC50,0.081 µg/mL
CCc1cc(NCc2nc3c(C)ccc(C)c3o2)c(=O)[nH]c1C,CEM,clinical isolate,p24,,A018A/H112-2,EC50,<0.025 µM
Cc1cn([C@H]2C[C@H](N=[N+]=[N-])[C@@H](CO)O2)c(=O)[nH]c1=O,,,cytopathic effect / XTT,,IIIB,EC50,0.012 µM
CCn1nc(Cc2cccc(F)c2)cc1C1CCN(C[C@H]2CN([C@@H](C(=O)O)C3CCCCC3)C[C@@H]2c2cccc(F)c2)CC1,HeLa,50% human serum,β-galactosidase,,BaL,EC50,<0.033 µM
CCOCn1c(Sc2cc(C)cc(C)c2)c(C(C)C)c(=O)[nH]c1=S,CEM,,microscopy,,IIIB,EC50,0.0008 µM
OB(O)c1ccccc1/C=N/NC(=S)Nc1ccccc1,CEM,,syncytia,,IIIB,EC50,>50 µM
Cc1cn([C@H]2C[C@H](N=[N+]=[N-])[C@@H](CO)O2)c(=O)[nH]c1=O,PBMC,,,,xxBRU,EC90,0.01 µM
CC(C)CN(C[C@@H](O)[C@H](Cc1ccccc1)NC(=O)O[C@H]1CCOC1)S(=O)(=O)c1ccc(N)cc1,MT-2,,cytopathic effect / MTT,Gag R409K L449F E468K PR L10F V32I M46I I54M A71V I84V,GAG-L75 H219 V390 APV-resistant,EC50,>2.5 µM
[N-]=[N+]=N[C@@H]1[C@H](O)[C@@H](CO)O[C@H]1n1ccc(N)nc1=O,CEM,,p24,,IIIB,EC50,>0.5 µM
COc1cc2c(cc1OC)[C@@H](Cc1ccc(OC)c(Oc3cc4c(cc3OC)CCN(C)[C@@H]4Cc3ccc(O)cc3)c1)N(C)CC2,H9,,p24,,IIIB,EC50,<0.8 µg/mL
O=C(O)P(=O)(O)O,PBMC,,p24,,8680 CLADE D CLADE D,EC50,18.6 µM
CCCCN1C[C@H](O)[C@@H](O)[C@H](O)[C@H]1CO,JM,,syncytia,,GB8,EC50,56 µM
O=c1[nH]cnc2c1ncn2[C@H]1CC[C@@H](CO)O1,MT-2,,RT activity,,PDBC,EC50,5 µM
CC[C@H](C)[C@H](C(=O)O)N1C[C@H](CN2CCC(c3cc(Cc4ccc(OCc5ccccc5)cc4)nn3CC)CC2)[C@@H](c2cccc(F)c2)C1,HeLa,50% human serum,β-galactosidase,,BaL,EC50,<0.3 µM
OB(O)c1ccc(/C=N\NC(=S)Nc2ccccc2)cc1,CEM,,syncytia,,IIIB,EC50,>50 µM
CC(C)=CCN1Cc2cccc3[nH]c(=S)n(c23)C[C@@H]1C,MT-2,,RT activity,RT-S156A,HX(RT-S156A),EC50,0.09 µM
CC[C@@H](C)[C@H](C(=O)O)N1C[C@H](CN2CCC(c3cc(Cc4cccc(CN)c4)nn3CC)CC2)[C@@H](c2cccc(F)c2)C1,HeLa,,β-galactosidase,,BaL,EC50,<0.0037 µM
COc1cc([N+](=O)[O-])ccc1N[C@@H]1c2cc3c(cc2[C@@H](c2cc(OC)c(O)c(OC)c2)[C@H]2C(=O)OC[C@@H]21)OCO3,H9,,p24,,IIIB,EC50,0.012 µg/mL
C1CCNCCCN(CCCN2CCCNCCCNCCC2)CCCNCCCCNCCCN(CCCN2CCCNCCCNCCC2)CCCNC1,MT-4,,cytopathic effect,,IIIB,EC50,8.4 µM
CCCc1c([Se]c2ccccc2)n(COCC)c(=O)[nH]c1=O,MT-2,,p24,,Cat #3 strain,EC50,0.62 µM
OB(O)c1ccc(Br)cc1,CEM,,syncytia,,IIIB,EC50,>50 µM
O=c1c(O[C@@H]2O[C@H](CO)[C@H](O)[C@H](O)[C@H]2O[C@@H]2OC[C@@H](O)[C@H](O)[C@H]2O)c(-c2ccc(O)c(O)c2)oc2cc(O)cc(O)c12,H9,,p24,,IIIB,EC50,4 µg/mL
C1CNCCCN(CCCN2CCCNCCCN(CCCN3CCCNCCCNCCC3)CCCNCCC2)CCCNC1,MT-4,,cytopathic effect,,IIIB,EC50,1.98 µM
CCc1cc(NCc2nc3c(Cl)ccc(Cl)c3o2)c(=O)[nH]c1C,MT-4,,p24,,MN,EC50,<0.1 µM
CCOc1cccc(Cc2cc(C3CCN(C[C@H]4CN([C@@H](C(=O)O)[C@@H](C)CC)C[C@@H]4c4cccc(F)c4)CC3)n(CC)n2)c1,HeLa,,β-galactosidase,,BaL,EC90,<0.00014 µM
CO[C@H]1/C=C/O[C@@]2(C)Oc3c(C)c(O)c4c(c3C2=O)C(=O)C(SCCCCCCCOC(=O)CCCC(=O)OC[C@H]2O[C@@H](n3cc(C)c(=O)[nH]c3=O)C[C@@H]2N=[N+]=[N-])=C(NC(=O)/C(C)=C\C=C\[C@H](C)[C@H](O)[C@@H](C)[C@@H](O)[C@@H](C)[C@H](OC(C)=O)[C@@H]1C)C4=O,C8166,,p24,,IIIB,EC50,0.04 µM
Cc1ccnc2c1NC(=O)c1cccnc1N2C1CC1,CEM,,syncytia,,IIIB,EC50,0.12 µM
CC[C@H](C)[C@H](C(=O)O)N1C[C@H](CN2CCC(c3cc(Cc4ccc(Oc5ccccc5)cc4)nn3CC)CC2)[C@@H](c2cccc(F)c2)C1,HeLa,,β-galactosidase,,BaL,EC50,<0.0012 µM
CCOCn1c(Cc2cc(C)cc(C)c2)c(CC)c(=O)[nH]c1=O,CEM,,syncytia,RT-C181I,IIIB,EC50,0.35 µM
COc1ccc(C=O)cc1B(O)O,CEM,,syncytia,,IIIB,EC50,≥250 µM
CC[C@H](C)[C@H](C(=O)O)N1C[C@H](CN2CCC(c3cc(Cc4ccc(OC(F)F)cc4)nn3CC)CC2)[C@@H](c2cccc(F)c2)C1,HeLa,50% human serum,β-galactosidase,,BaL,EC90,0.011 µM
CO[C@H]1/C=C/O[C@@]2(C)Oc3c(C)c(O)c4c(c3C2=O)C(=O)C(SCCOC(=O)CCC(=O)OC[C@H]2O[C@@H](n3cc(C)c(=O)[nH]c3=O)CC2O)=C(NC(=O)/C(C)=C\C=C\[C@H](C)[C@H](O)[C@@H](C)[C@@H](O)[C@@H](C)[C@H](OC(C)=O)[C@@H]1C)C4=O,C8166,,p24,,IIIB,EC50,>20 µM
CC(C)Nc1cccnc1N1CCN(C(=O)c2cc3cc(NS(C)(=O)=O)ccc3[nH]2)CC1,PBMC,,p24,RT-L74V M41L V106A T215Y,NRTI resistant (RT L74V M41L V106A T215Y) MDR,EC50,0.4 µM
Nc1ccn([C@H]2S[C@@H](CO)C=C2F)c(=O)n1,PBMC,,,RT-M184V,3TC-resistant (RT M184V),EC90,>100 µM
COc1cc2c(cc1OC)[C@@H](Nc1ccc(C#N)cc1)[C@H]1COC(=O)[C@@H]1[C@@H]2c1cc(OC)c(O)c(OC)c1,H9,,p24,,IIIB,EC50,<0.001 µg/mL
Cc1cn([C@H]2C[C@H](N=[N+]=[N-])[C@@H](CO)O2)c(=O)[nH]c1=O,PBMC,,p24,,Isolate 410,EC90,6.6 µM
O=S1(c2ccccc2)=NC(=S)Nc2ccccc21,CEM + CEM-SS,,cytopathic effect / XTT,,205,EC50,1.75 µM
O=c1[nH]cnc2c1ncn2[C@H]1CC[C@@H](CO)O1,PBMC,,p24,,RF,EC50,0.7 µM
C1CCNCCCNCCCN(CCCN2CCCNCCCNCCC2)CCCNCCCNC1,MT-4,,cytopathic effect,,IIIB,EC50,27 µM
CC(C)Nc1cccnc1N1CCN(C(=O)c2cc3cc(NS(C)(=O)=O)ccc3[nH]2)CC1,PBMC,,p24,,Isolate 472,EC90,>10 µM
Nc1nc(=O)n([C@@H]2CS[C@H](CO)O2)cc1F,CEM,14 d,cytopathic effect,,LAV-1,EC50,1.01 µM
CC(C)Nc1cccnc1N1CCN(C(=O)c2cc3cc(NS(C)(=O)=O)ccc3[nH]2)CC1,CEM,,cytopathic effect,RT-K101E,C-1 (RT-K101E),EC50,0.0031 µg/mL
Fc1cccc(F)c1[C@@H]1SCc2nc3ccccc3n21,MT-4,,cytopathic effect / MTT,,NDK,EC50,0.2 µg/mL
CCn1nc(Cc2ccc(S(=O)(=O)c3ccccc3)cc2)cc1C1CCN(C[C@H]2CN([C@@H](C(=O)O)C3CCCCC3)C[C@@H]2c2cccc(F)c2)CC1,HeLa,,β-galactosidase,,BaL,EC50,<0.0004 µM
Cc1cn([C@H]2C[C@H](N=[N+]=[N-])[C@@H](CO)O2)c(=O)[nH]c1=O,C8166,,cytopathic effect / MTT,,CC,EC50,0.009 µM
C=COC(=O)Oc1c(OC)cc([C@@H]2c3cc4c(cc3[C@@H](O)[C@H]3COC(=O)[C@H]23)OCO4)cc1OC,H9,,p24,,IIIB,EC50,0.034 µg/mL
CC(C)[C@H](NC(=O)N(C)Cc1ccccn1)C(=O)N[C@@H](Cc1ccccc1)[C@@H](O)[C@H](O)[C@H](Cc1ccccc1)NC(=O)[C@@H](NC(=O)N(C)Cc1ccccn1)C(C)C,ATH8,,cytopathic effect / trypan blue,,IIIB,EC50,<8.5 µM
NC1=Nc2c(ncn2CCC(/C=C/P(=O)(O)O)CO)C(=O)C1,PBMC,,p24,,RF,EC50,3.7 µM
O=Cc1ccccc1B(O)O,CEM,,syncytia,,IIIB,EC50,>50 µM
COc1cc([C@@H]2c3cc4c(cc3[C@@H](Nc3ccc([N+](=O)[O-])cc3)[C@H]3COC(=O)[C@H]23)OCO4)cc(OC)c1O,H9,,p24,,IIIB,EC50,0.055 µg/mL
O=C(CC[C@H]1C(=O)OCN1C(=O)OCc1ccccc1)Nc1ccc(B(O)O)cc1,CEM,,syncytia,,IIIB,EC50,>50 µM
O=c1[nH]cnc2c1ncn2[C@H]1CC[C@@H](CO)O1,MT-4,,cytopathic effect,,IIIB,EC50,18.6 µM
CO[C@H]1/C=C/O[C@@]2(C)Oc3c(C)c(O)c4c(c3C2=O)C(=O)C(SCCOC(=O)CCC(=O)OC[C@H]2O[C@@H](n3cc(C)c(=O)[nH]c3=O)C[C@@H]2N=[N+]=[N-])=C(NC(=O)/C(C)=C\C=C\[C@H](C)[C@@H]2OC(C)(C)O[C@@H]([C@@H](C)[C@H](OC(C)=O)[C@@H]1C)[C@@H]2C)C4=O,C8166,,p24,,IIIB,EC90,13 µM
NC1=Nc2c(ncn2CCCCC(F)(F)P(=O)(O)O)C(=O)C1,MT-4,,cytopathic effect / MTT,,RF,EC50,>500 µM
S=C(NCCc1ccccn1)Nc1ccc(Br)cn1,PBMC,,p24,RT-L74V M41L V106A T215Y,NRTI resistant (RT L74V M41L V106A T215Y) MDR,EC50,0.02 µM
Cc1cn([C@H]2C[C@H](N=[N+]=[N-])[C@@H](CO)O2)c(=O)[nH]c1=O,CEM(TK-) + CEM TK-,,cytopathic effect,,LAV-1,EC50,>100 µM
CC(C)=CCOc1cc(NC(=S)c2ccoc2C)ccc1Cl,CEM,,cytopathic effect,,IIIB,EC50,0.0025 µg/mL
CC[C@@H](C)[C@H](C(=O)O)N1C[C@H](CN2CCC(c3cc(Cc4ccc(S(=O)(=O)c5ccccc5)cc4)nn3CC)CC2)[C@@H](c2cccc(F)c2)C1,HeLa,50% human serum,β-galactosidase,,BaL,EC50,<0.033 µM
CC(C)=CCN1Cc2cc(Cl)cc3[nH]c(=S)n(c23)C[C@@H]1C,CEM,,syncytia,RT-C181I,IIIB,EC50,15 µM
COc1cc2c(cc1OC)[C@@H](Cc1ccc(O)c(Oc3cc4c(cc3OC)CCN(C)[C@@H]4Cc3ccc(O)cc3)c1)N(C)CC2,H9,,p24,,IIIB,EC50,<0.8 µg/mL
Cc1ccnc2c1NC(=O)c1cccnc1N2C1CC1,MT-4,,trypan blue,,IIIB,EC50,0.048 µM
C1CNCCCN(CCCN2CCNCCC[N+](CCCN3CCCNCCCNCCC3)(CCCN3CCCNCCCNCCC3)CCCNCC2)CCCNC1,MT-4,,cytopathic effect,,IIIB,EC50,9.8 µM
CN1CCc2cc3c(c4c2[C@H]1Cc1ccc(O)cc1-4)OCO3,H9,,p24,,IIIB,EC50,0.84 µg/mL

Repeating the first 8 entries:

| smiles | cells | conditions | method | mutations | strain or isolate | read-out | value |
|---|---|---|---|---|---|---|---|
| CCn1nc(Cc2ccc(OC3CC3)cc2)cc1C1CCN(C[C@H]2CN([C@@H](C(=O)O)C(C)(C)C)C[C@@H]2c2cccc(F)c2)CC1 | HeLa | 50% human serum | β-galactosidase |  | BaL | EC90 | 0.033 µM |
| N#C/C=C1/c2cc(S)cc([N+](=O)[O-])c2-c2c1cc(S(=O)(=O)NCc1ccccc1)cc2[N+](=O)[O-] | MT-4 |  | MTT / absorbance |  | IIIB | EC50 | 72.64 µM |
| Cc1cn([C@@H]2O[C@H](CO[Si](C)(C)C(C)(C)C)[C@@]3(OS(=O)(=O)C=C3N)[C@H]2O[Si](C)(C)C(C)(C)C)c(=O)[nH]c1=O | CEM |  | syncytia | RT-Y181C | IIIB | EC50 | 3 µM |
| CCCCCCNC(=O)OCCCCCCNC(=O)OC1CCN(C(=O)Oc2ccc(Oc3ccccc3)cc2)CC1 | C8166 |  | p24 / ELISA |  | IIIB | EC50 | 2.03 µM |
| CCc1cc(NCc2nc3c(Cl)ccc(Cl)c3o2)c(=O)[nH]c1C | CEM |  | syncytia | RT-C181I | IIIB | EC50 | >15 µM |
| Oc1ccc(C[C@@H]2NCCc3cc(O)c(O)cc32)cc1 | H9 |  | p24 |  | IIIB | EC50 | <0.8 µg/mL |
| CCOCn1c(Cc2ccccc2)c(C(C)C)c(=O)[nH]c1=O | CEM |  | cytopathic effect | RT-Y181C | J-2 (RT-Y181C) | EC50 | 0.081 µg/mL |
| CCc1cc(NCc2nc3c(C)ccc(C)c3o2)c(=O)[nH]c1C | CEM | clinical isolate | p24 |  | A018A/H112-2 | EC50 | <0.025 µM |

Blank or dashed fields: not listed here. ECn is the concentration giving n% inhibition of infection, replication or growth.